A mixed list of measured activities; the numbers were collected in NIAID ChemDB.

All rows: whole-cell or culture tests; species: Mycobacterium avium complex

MIC50, MIC90 and the like: level of inhibition, or share of isolates inhibited.

{"SMILES": "C[C@@H]1CN(c2c(F)c(N)c3c(=O)c(C(=O)O)cn(C4CC4)c3c2F)C[C@H](C)N1", "strain or isolate": "Isolate 90-0827", "endpoint": "MBC", "value": "1.5 µg/mL"}
{"SMILES": "CC(C)(C)NC(=O)OCCN=c1ssc2ccccc12", "strain or isolate": "AN2", "endpoint": "MIC", "value": "4 µg/mL"}
{"SMILES": "CN1CCCC1CCN=c1cc2n(-c3ccc(Cl)cc3)c3ccccc3nc-2cc1Nc1ccccc1", "strain or isolate": "10 strains (HIV+)", "endpoint": "MIC50", "value": "0.4 µg/mL"}
{"SMILES": "CC1(C)S[C@@H]2[C@H](NC(=O)C(C(=O)O)c3ccccc3)C(=O)N2[C@H]1C(=O)O", "strain or isolate": "CIPT 140310002", "endpoint": "MIC", "value": "25 µg/mL"}
{"SMILES": "CCNC(=O)OCCN=c1ssc2ccccc12", "strain or isolate": "ATCC 15769", "endpoint": "MIC", "value": "4 µg/mL"}
{"SMILES": "COc1cc(OC)cc(N(C)Cc2cnc3nc(N)nc(N)c3c2C)c1", "strain or isolate": "NJ3404", "endpoint": "MIC", "value": "≤0.13 µg/mL"}
{"SMILES": "CO[C@H]1/C=C/O[C@@]2(C)Oc3c(C)c(O)c4c(=O)c(c5oc6cc(N7CCN(CC(C)C)CC7)cc(=O)c6nc5c4c3=C2O)NC(=O)/C(C)=C\\C=C\\[C@H](C)[C@H](O)[C@@H](C)[C@@H](O)[C@@H](C)[C@H](OC(C)=O)[C@@H]1C", "strain or isolate": "N-269 (HIV-)", "endpoint": "MIC", "value": "0.0625 µg/mL"}
{"SMILES": "CCc1nc(N)nc(N)c1-c1ccc(Cl)cc1", "strain or isolate": "DW21", "endpoint": "MIC", "value": "32 µg/mL"}
{"SMILES": "Cc1c(CNc2cccc3ccccc23)cnc2nc(N)nc(N)c12", "strain or isolate": "NJ211", "endpoint": "MIC", "value": "≤0.13 µg/mL"}
{"SMILES": "C[C@@H](O)[C@H]1C(=O)N2C(C(=O)O)=C(SCCN=CN)C[C@H]12", "strain or isolate": "CIPT 140310002", "endpoint": "MIC", "value": "10 µg/mL"}
{"SMILES": "CCCCCCCCCCCCCCCCO/N=C1\\[C@H](C)CC(C)(O)[C@H](O[C@@H]2O[C@H](C)C[C@H](N(C)C)[C@H]2O)[C@@H](C)[C@H](OC2C[C@@](C)(OC)[C@@H](O)[C@H](C)O2)[C@@H](C)C(=O)O[C@H](CC)[C@@](C)(O)[C@H](O)[C@H]1C", "strain or isolate": "20096 (clarithromycin-resistant)", "endpoint": "MIC", "value": ">50 µg/mL"}
{"SMILES": "CO[C@H]1/C=C/O[C@@]2(C)Oc3c(C)c(O)c4c(O)c(c(/C=N/N5CCN(C6CCCC6)CC5)c(O)c4c3C2=O)NC(=O)/C(C)=C\\C=C\\[C@H](C)[C@H](O)[C@@H](C)[C@@H](O)[C@@H](C)[C@H](OC(C)=O)[C@@H]1C", "strain or isolate": "T", "endpoint": "MIC", "value": "0.5 µg/mL"}
{"SMILES": "CC1(C)N=C(N)N=C(N)N1OCCCOc1cc(Cl)c(Cl)cc1Cl", "strain or isolate": "DW1", "endpoint": "MIC", "value": "1 µg/mL"}
{"SMILES": "COc1cc(NCc2cnc3nc(N)nc(N)c3c2C)cc(OC)c1", "strain or isolate": "NJ211", "endpoint": "MIC", "value": "≤0.13 µg/mL"}
{"SMILES": "CC[C@H]1OC(=O)[C@H](C)[C@@H](O[C@H]2C[C@@](C)(OC)[C@@H](O)[C@H](C)O2)[C@H](C)[C@@H](O[C@@H]2O[C@H](C)C[C@H](N(C)C)[C@H]2O)[C@](C)(OC)C[C@@H](C)C(=O)[C@H](C)[C@@H](O)[C@]1(C)O", "strain or isolate": "N-265 (HIV-)", "endpoint": "MIC", "value": "2 µg/mL"}
{"SMILES": "OCCN=c1ssc2ccccc12", "strain or isolate": "AN3", "endpoint": "MIC", "value": "2 µg/mL"}
{"SMILES": "Cc1c(CNc2cnc3ccccc3c2)cnc2nc(N)nc(N)c12", "strain or isolate": "NJ211", "endpoint": "MIC", "value": "≤0.13 µg/mL"}
{"SMILES": "CO[C@H]1/C=C/O[C@@]2(C)Oc3c(C)c(O)c4c(O)c(c5c(c4c3C2=O)NC2(CCN(CC(C)C)CC2)N=5)=NC(=O)/C(C)=C\\C=C\\[C@H](C)[C@H](O)[C@@H](C)[C@@H](O)[C@@H](C)[C@H](OC(C)=O)[C@@H]1C", "strain or isolate": "N-961 (HIV+)", "endpoint": "MIC", "value": "0.8 µg/mL"}
{"SMILES": "Cc1onc(-c2ccccc2Cl)c1C(=O)N[C@@H]1C(=O)N2[C@@H]1SC(C)(C)[C@@H]2C(=O)O", "strain or isolate": "CIPT 140310003 (rough)", "endpoint": "MIC", "value": "25 µg/mL"}
{"SMILES": "CCNC(=O)OCCn1sc2ccccc2c1=S", "strain or isolate": "AN2", "endpoint": "MIC", "value": "8 µg/mL"}
{"SMILES": "CCN=c1cc2n(-c3ccc(Cl)cc3)c3ccccc3nc-2cc1Nc1ccc(Cl)cc1", "strain or isolate": "1625", "endpoint": "MIC", "value": "0.25 µg/mL"}
{"SMILES": "CC[C@H]1OC(=O)[C@H](C)[C@@H](O[C@H]2C[C@@](C)(OC)[C@@H](OC(C)=O)[C@H](C)O2)[C@H](C)[C@@H](O[C@@H]2O[C@H](C)C[C@H](N(C)C)[C@H]2OC(=O)NN)C(C)(O)C[C@@H](C)/C(=N\\OCCCC2CCCCC2)[C@H](C)[C@@H](O)[C@]1(C)O", "strain or isolate": "20096 (clarithromycin-resistant)", "endpoint": "MIC", "value": "3.13 µg/mL"}
{"SMILES": "CC(C)NC(=O)OCCn1sc2ccccc2c1=S", "strain or isolate": "ISS 486", "endpoint": "MIC", "value": "4 µg/mL"}
{"SMILES": "Cc1c(CNc2ccc3ccccc3c2)cnc2nc(N)nc(N)c12", "strain or isolate": "NJ211", "endpoint": "MIC", "value": "≤0.13 µg/mL"}
{"SMILES": "CC(C)(C)NC(=O)OCCn1sc2ccccc2c1=O", "strain or isolate": "AN1", "endpoint": "MIC", "value": ">32 µg/mL"}
{"SMILES": "CC[C@H]1OC(=O)[C@H](C)[C@@H](OC2C[C@@](C)(OC)[C@@H](OC(=O)CCCc3ccccc3)[C@H](C)O2)[C@H](C)[C@@H](O[C@@H]2O[C@H](C)C[C@H](N(C)C)[C@H]2O)C(C)(O)C[C@@H](C)/C(=N\\OCCCOc2ccccc2)[C@H](C)[C@@H](O)[C@]1(C)O", "strain or isolate": "20092 (clarithromycin-resistant)", "endpoint": "MIC", "value": "3.13 µg/mL"}
{"SMILES": "CC(=O)Nc1ccc(/C(C)=N\\NC(N)=S)cc1", "strain or isolate": "116", "endpoint": "MIC", "value": "32 µg/mL"}
{"SMILES": "CC(C)NC(=O)OCCn1sc2ccccc2c1=O", "strain or isolate": "AN3", "endpoint": "MIC", "value": "16 µg/mL"}
{"SMILES": "NNC(=O)c1ccncc1", "strain or isolate": "13033", "endpoint": "MIC", "value": "0.4–0.63 µg/mL"}
{"SMILES": "C[C@@H]1CN(c2c(F)c(N)c3c(=O)c(C(=O)O)cn(C4CC4)c3c2F)C[C@H](C)N1", "strain or isolate": "N-981 (HIV+)", "endpoint": "MIC", "value": "0.5 µg/mL"}
{"SMILES": "CC[C@H]1OC(=O)[C@H](C)[C@@H](O[C@H]2C[C@@](C)(OC)[C@@H](OC(C)=O)[C@H](C)O2)[C@H](C)[C@@H](O[C@@H]2O[C@H](C)C[C@H](N(C)C)[C@H]2OC(=O)NNCc2ccccc2[N+](=O)[O-])C(C)(O)C[C@@H](C)/C(=N\\OCCCC2CCCCC2)[C@H](C)[C@@H](O)[C@]1(C)O", "strain or isolate": "20039 (clarithromycin-susceptible)", "endpoint": "MIC", "value": "0.78 µg/mL"}
{"SMILES": "CC1(C)N=C(N)N=C(N)N1OCCCOc1cc(Cl)c(Cl)cc1Cl", "strain or isolate": "3030", "endpoint": "MIC", "value": "1 µg/mL"}
{"SMILES": "CC1(C)S[C@@H]2[C@H](NC(=O)[C@H](C(=O)[O-])c3ccsc3)C(=O)N2[C@H]1C(=O)[O-].[Na+].[Na+]", "strain or isolate": "CIPT 140310006", "endpoint": "MIC", "value": "35 µg/mL"}
{"SMILES": "COc1cc(NCc2cnc3nc(N)nc(N)c3c2C)cc(C(F)(F)F)c1", "strain or isolate": "NJ211", "endpoint": "MIC", "value": "≤0.13 µg/mL"}
{"SMILES": "CCCNC(=O)OCCn1sc2ccccc2c1=O", "strain or isolate": "ISS 486", "endpoint": "MIC", "value": "16 µg/mL"}

Repeating the final 5 entries:

SMILES,strain or isolate,endpoint,value
CC[C@H]1OC(=O)[C@H](C)[C@@H](O[C@H]2C[C@@](C)(OC)[C@@H](OC(C)=O)[C@H](C)O2)[C@H](C)[C@@H](O[C@@H]2O[C@H](C)C[C@H](N(C)C)[C@H]2OC(=O)NNCc2ccccc2[N+](=O)[O-])C(C)(O)C[C@@H](C)/C(=N\OCCCC2CCCCC2)[C@H](C)[C@@H](O)[C@]1(C)O,20039 (clarithromycin-susceptible),MIC,0.78 µg/mL
CC1(C)N=C(N)N=C(N)N1OCCCOc1cc(Cl)c(Cl)cc1Cl,3030,MIC,1 µg/mL
CC1(C)S[C@@H]2[C@H](NC(=O)[C@H](C(=O)[O-])c3ccsc3)C(=O)N2[C@H]1C(=O)[O-].[Na+].[Na+],CIPT 140310006,MIC,35 µg/mL
COc1cc(NCc2cnc3nc(N)nc(N)c3c2C)cc(C(F)(F)F)c1,NJ211,MIC,≤0.13 µg/mL
CCCNC(=O)OCCn1sc2ccccc2c1=O,ISS 486,MIC,16 µg/mL

Two numbers with a dash give a range or band. Lines come from different laboratories, so protocols vary.